Source: PMC6504873, “High-throughput screening of the Plasmodium falciparum cGMP-dependent protein kinase identified a thiazole scaffold which kills erythrocytic and sexual stage parasites” (Scientific Reports, 2019)

Sequences of proteins named here, by UniProt entry; tags and fusion partners are left off.
UniProt Q13976, whole entry: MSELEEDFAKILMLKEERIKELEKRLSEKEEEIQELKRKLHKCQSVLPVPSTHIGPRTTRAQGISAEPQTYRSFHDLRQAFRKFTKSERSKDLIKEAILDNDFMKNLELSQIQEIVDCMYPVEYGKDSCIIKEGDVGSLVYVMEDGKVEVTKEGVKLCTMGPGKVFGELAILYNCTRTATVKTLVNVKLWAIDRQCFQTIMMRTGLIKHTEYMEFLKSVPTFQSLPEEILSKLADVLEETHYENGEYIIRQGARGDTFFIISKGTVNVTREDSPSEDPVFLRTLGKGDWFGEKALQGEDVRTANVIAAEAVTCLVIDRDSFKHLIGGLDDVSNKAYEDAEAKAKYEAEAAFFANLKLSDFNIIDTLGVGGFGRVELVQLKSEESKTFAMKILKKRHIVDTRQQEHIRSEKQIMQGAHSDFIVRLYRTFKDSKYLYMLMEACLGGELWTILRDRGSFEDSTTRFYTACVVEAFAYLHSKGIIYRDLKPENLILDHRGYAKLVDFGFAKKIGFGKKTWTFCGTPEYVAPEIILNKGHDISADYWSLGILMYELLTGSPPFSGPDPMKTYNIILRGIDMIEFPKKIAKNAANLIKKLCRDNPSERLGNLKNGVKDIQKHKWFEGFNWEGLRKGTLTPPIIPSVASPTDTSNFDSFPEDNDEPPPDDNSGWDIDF
UniProt Q8I719, whole entry: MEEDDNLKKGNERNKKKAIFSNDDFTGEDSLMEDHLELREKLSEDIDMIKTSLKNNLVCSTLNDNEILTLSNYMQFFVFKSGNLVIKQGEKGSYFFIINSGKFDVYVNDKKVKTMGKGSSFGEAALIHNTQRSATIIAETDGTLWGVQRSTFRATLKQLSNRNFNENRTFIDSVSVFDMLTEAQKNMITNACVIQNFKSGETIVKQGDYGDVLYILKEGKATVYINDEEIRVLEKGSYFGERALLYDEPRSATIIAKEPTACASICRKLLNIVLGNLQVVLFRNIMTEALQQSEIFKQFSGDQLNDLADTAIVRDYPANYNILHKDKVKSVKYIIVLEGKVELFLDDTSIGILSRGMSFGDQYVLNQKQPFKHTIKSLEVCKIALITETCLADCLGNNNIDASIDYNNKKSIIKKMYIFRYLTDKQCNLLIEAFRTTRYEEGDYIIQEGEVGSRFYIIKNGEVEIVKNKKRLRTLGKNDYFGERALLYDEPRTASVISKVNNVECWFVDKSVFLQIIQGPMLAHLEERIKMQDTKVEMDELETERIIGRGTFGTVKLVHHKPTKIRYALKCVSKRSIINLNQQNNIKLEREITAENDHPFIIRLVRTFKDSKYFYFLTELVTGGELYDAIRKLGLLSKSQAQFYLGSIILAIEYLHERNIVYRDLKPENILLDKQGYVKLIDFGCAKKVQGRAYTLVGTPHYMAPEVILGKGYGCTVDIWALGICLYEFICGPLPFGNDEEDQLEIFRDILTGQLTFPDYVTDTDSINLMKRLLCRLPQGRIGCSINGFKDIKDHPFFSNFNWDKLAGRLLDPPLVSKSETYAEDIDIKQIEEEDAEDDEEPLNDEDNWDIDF
UniProt Q8I719, whole entry T618Q: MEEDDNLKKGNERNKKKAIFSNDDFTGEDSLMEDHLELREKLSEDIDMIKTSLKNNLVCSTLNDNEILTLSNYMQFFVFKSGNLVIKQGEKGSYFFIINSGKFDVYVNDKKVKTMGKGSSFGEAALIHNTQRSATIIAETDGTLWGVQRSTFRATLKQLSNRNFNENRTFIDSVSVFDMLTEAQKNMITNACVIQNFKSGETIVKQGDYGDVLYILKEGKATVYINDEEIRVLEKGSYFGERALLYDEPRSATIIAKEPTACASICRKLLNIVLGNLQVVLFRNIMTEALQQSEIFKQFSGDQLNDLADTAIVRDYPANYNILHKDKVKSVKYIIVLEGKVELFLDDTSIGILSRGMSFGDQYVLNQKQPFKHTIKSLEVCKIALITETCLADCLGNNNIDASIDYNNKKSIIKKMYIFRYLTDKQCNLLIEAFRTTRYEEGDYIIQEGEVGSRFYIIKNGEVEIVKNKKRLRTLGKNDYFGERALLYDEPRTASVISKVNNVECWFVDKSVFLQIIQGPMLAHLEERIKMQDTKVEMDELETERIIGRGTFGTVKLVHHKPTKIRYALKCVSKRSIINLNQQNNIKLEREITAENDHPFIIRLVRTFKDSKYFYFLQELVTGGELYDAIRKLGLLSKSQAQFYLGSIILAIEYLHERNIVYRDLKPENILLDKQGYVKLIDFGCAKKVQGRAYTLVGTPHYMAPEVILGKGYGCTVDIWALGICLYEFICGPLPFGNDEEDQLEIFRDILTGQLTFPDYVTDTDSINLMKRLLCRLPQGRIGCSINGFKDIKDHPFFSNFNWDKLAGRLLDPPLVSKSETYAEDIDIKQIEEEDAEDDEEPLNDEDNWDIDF

How the values were obtained:
[1] = biological target: HuPKGIα (Homo sapiens, UniProt Q13976); test: Kinase Glo enzymatic assay, human PKG; type: biochemical; conditions: read-out: Hu PKGIα, human PKGIα
[2] = biological target: T1, WT PfPKG (Plasmodium falciparum, UniProt Q8I719); conditions: read-out: WT PfPKG, recombinant WT PfPKG
[3] = biological target: TQ PfPKG (PfPKG_T618Q) (Plasmodium falciparum, UniProt Q8I719, T618Q); conditions: read-out: TQ PfPKG, gatekeeper mutant TQ PfPKG
[4] = biological target: T1, WT PfPKG; conditions: for LE: ligand efficiency; for LLE: lipophilic ligand efficiency

SMILES	IC50 [1]	IC50 [2]	IC50 [3]	LE [4]	LLE [4]	also measured
COc1cc(-c2nc(C(C)(C)CN)[nH]c2-c2ccncc2)ccc1Cl	> 100 µM	0.0017 µM	66.8 µM	0.5	6.1	
OCc1ccn2nc(-c3ccc(F)cc3)c(-c3ccncc3)c2c1	> 100 µM	0.072 µM	> 100 µM	0.4	4.1	
CC(C)(NC(=O)c1cccnc1)c1nc(-c2ccc(Cl)c(O)c2)c(-c2ccncc2)[nH]1						IC50 ([1]; tested form: HCl): > 100 µM; IC50 ([2]; tested form: HCl): 0.075 µM; IC50 ([3]; tested form: HCl): > 100 µM; LE ([4]; tested form: HCl): 0.3; LLE ([4]; tested form: HCl): 4.2
c1cncc(-c2n[nH]cc2-c2ccncc2)c1	> 100 µM	0.733 µM	> 100 µM	0.5	5.2	
N#Cc1ccc(-c2nc(-c3ccncc3)c(-c3ccncc3)[nH]2)cc1	> 100 µM	0.617 µM	> 100 µM	0.34	3.9	
CC(C)(CN)c1nc(-c2ccc(Cl)c(Cl)c2)c(-c2ccncc2)[nH]1						IC50 ([1]; tested form: HCl): > 100 µM; IC50 ([2]; tested form: HCl): 0.008 µM; IC50 ([3]; tested form: HCl): 18.8 µM; LE ([4]; tested form: HCl): 0.46; LLE ([4]; tested form: HCl): 4.7
Nc1nccc(-c2sc(N)nc2-c2cccc(NS(=O)(=O)c3c(F)cccc3F)c2F)n1	> 100 µM	0.068 µM	> 100 µM	0.3	4.6	
FC(F)(F)c1cccc(-c2n[nH]cc2-c2ccncc2)c1	> 100 µM	0.023 µM	> 100 µM	0.5	4.4	
Nc1nccc(-c2[nH]c(C3CCOCC3)nc2-c2cccc(NS(=O)(=O)c3ccoc3)c2F)n1	> 100 µM	0.005 µM	22.6 µM	0.34	7.3	
COCCN1CCC(CNCC(C)(C)c2nc(-c3ccc(Cl)c(O)c3)c(-c3ccncc3)[nH]2)CC1						IC50 ([1]; tested form: HCl): > 100 µM; IC50 ([2]; tested form: HCl): 0.02 µM; IC50 ([3]; tested form: HCl): > 100 µM; LE ([4]; tested form: HCl): 0.3; LLE ([4]; tested form: HCl): 4.5
CNc1c(C(N)=O)c(-c2ccc3scnc3c2)nn1-c1cccc(F)c1	> 100 µM	0.432 µM	> 100 µM	0.34	3.5	
CC(C)(CN1CCCCC1)c1nc(-c2ccnc(N)n2)c(-c2ccc(Cl)c(O)c2)[nH]1						IC50 ([1]; tested form: HCl): > 100 µM; IC50 ([2]; tested form: HCl): 0.014 µM; IC50 ([3]; tested form: HCl): 50.1 µM; LE ([4]; tested form: HCl): 0.36; LLE ([4]; tested form: HCl): 4.3
CCn1nc(-c2ccc3cc(C(O)c4cccnc4)[nH]c3c2)c(C(N)=O)c1NC (stereo not shown)	> 100 µM	0.053 µM	> 100 µM	0.34	7.1	
O=C(O)c1ccc(-c2nc(-c3cccc(O)c3)c(-c3ccncc3)[nH]2)cc1	> 100 µM	0.051 µM	> 100 µM	0.37	3.6	
CC(=O)NCC(C)(C)c1nc(-c2ccc(Cl)c(O)c2)c(-c2ccncc2)[nH]1						IC50 ([1]; tested form: HCl): > 100 µM; IC50 ([2]; tested form: HCl): 0.00184 µM; IC50 ([3]; tested form: HCl): > 100 µM; LE ([4]; tested form: HCl): 0.44; LLE ([4]; tested form: HCl): 7.0
CC(C)(CNCc1nccs1)c1nc(-c2ccc(Cl)c(O)c2)c(-c2ccncc2)[nH]1						IC50 ([1]; tested form: HCl): > 100 µM; IC50 ([2]; tested form: HCl): 0.011 µM; IC50 ([3]; tested form: HCl): > 100 µM; LE ([4]; tested form: HCl): 0.36; LLE ([4]; tested form: HCl): 5.0
O=C(O)c1cccc(-c2nn3ccccc3c2-c2ccncc2)c1	> 100 µM	0.468 µM	> 100 µM	0.36	3.1	
NCc1ccc(-c2nc(-c3cc(O)ccc3Br)c(-c3ccncc3)[nH]2)cc1						IC50 ([1]; tested form: HCl): 42.7 µM; IC50 ([2]; tested form: HCl): 0.006 µM; IC50 ([3]; tested form: HCl): 11.7 µM; LE ([4]; tested form: HCl): 0.4; LLE ([4]; tested form: HCl): 4.7

SMILES	IC50 [1]	IC50 [2]	IC50 [3]	LE [4]	LLE [4]	also measured
NC(=O)c1c(-c2ccc3c(c2)OCO3)nn(-c2ccc(F)cc2F)c1N						IC50 ([1]; tested form: TFA): > 100 µM; IC50 ([2]; tested form: TFA): 0.398 µM; IC50 ([3]; tested form: TFA): > 100 µM; LE ([4]; tested form: TFA): 0.34; LLE ([4]; tested form: TFA): 3.9
CC(C)(C(=O)N1CCCC1)c1nc(-c2ccc(Cl)c(Cl)c2)c(-c2ccncc2)[nH]1						IC50 ([1]; tested form: HCl): > 100 µM; IC50 ([2]; tested form: HCl): 0.05 µM; IC50 ([3]; tested form: HCl): 20.4 µM; LE ([4]; tested form: HCl): 0.35; LLE ([4]; tested form: HCl): 3.5
CC(C)(C)n1nc(-c2ccc3cc[nH]c3c2)c(C(N)=O)c1N	> 100 µM	0.209 µM	> 100 µM	0.4	5.1	
CCC(C)n1nc(-c2ccc(OCC(C)C)cc2)c(C(N)=O)c1NC (stereo not shown)	> 100 µM	0.457 µM	> 100 µM	0.35	2.7	
COc1ccc(-c2n[nH]cc2-c2ccncn2)cc1	> 100 µM	0.272 µM	> 100 µM	0.47	5.0	
COc1ccc(-c2nn(C(C)(C)C)c(N)c2C(N)=O)cc1						IC50 ([1]; tested form: TFA): > 100 µM; IC50 ([2]; tested form: TFA): 0.254 µM; IC50 ([3]; tested form: TFA): > 100 µM; LE ([4]; tested form: TFA): 0.43; LLE ([4]; tested form: TFA): 5.1
CC(C)(CNS(C)(=O)=O)c1nc(-c2ccc(Cl)c(O)c2)c(-c2ccncc2)[nH]1						IC50 ([1]; tested form: HCl): > 100 µM; IC50 ([2]; tested form: HCl): 0.00851 µM; IC50 ([3]; tested form: HCl): > 100 µM; LE ([4]; tested form: HCl): 0.4; LLE ([4]; tested form: HCl): 6.1
CC(C)(NS(C)(=O)=O)c1nc(-c2ccc(Cl)c(O)c2)c(-c2ccncc2)[nH]1						IC50 ([1]; tested form: HCl): > 100 µM; IC50 ([2]; tested form: HCl): 0.006 µM; IC50 ([3]; tested form: HCl): > 100 µM; LE ([4]; tested form: HCl): 0.4; LLE ([4]; tested form: HCl): 6.5
CC(CO)Nc1nccc(-c2c(-c3ccccc3)nn3c2COCC3)n1 (stereo not shown)	> 100 µM	0.363 µM	> 100 µM	0.34	5.3	
FC(F)(F)c1cccc(-c2ncn(CC3CC3)c2-c2ccncc2)c1	> 100 µM	0.479 µM	> 100 µM	0.35	2.3	
CC(C)c1nc(-c2cccc(C(F)(F)F)c2)c(-c2ccnc(NCCO)n2)[nH]1	> 100 µM	0.251 µM	> 100 µM	0.32	2.9	
CC(C)CNc1[nH]nc(-c2ccc3scnc3c2)c1C(N)=O	> 100 µM	0.417 µM	> 100 µM	0.4	3.4	
N#Cc1ccc(-c2nc(-c3ccncc3)c(-c3ccccn3)[nH]2)cc1	> 100 µM	0.989 µM	> 100 µM	0.33	3.4	
Nc1[nH]nc(-c2ccncc2)c1-c1ccc2c(c1)OCO2	> 100 µM	0.072 µM	7.9 µM	0.47	5.3	
CC(C)(C)Cn1nc(-c2ccc3scnc3c2)c(C(N)=O)c1N	> 100 µM	0.094 µM	> 100 µM	0.4	4.9	
COc1ccc(-c2nc(S(=O)(=O)C(C)C)[nH]c2-c2ccncc2)cc1	> 100 µM	0.002 µM	> 100 µM	0.5	5.8	
CNc1nccc(-c2c(-c3ccc(F)cc3)ncn2[C@H](CO)CC(C)C)n1	> 100 µM	0.26 µM	> 100 µM	0.33	3.3	

Read-outs that look alike come from different tables or passages of the source.
